Measured values from several laboratories, pooled; numbers as filed in NIAID ChemDB.

Shared fields: whole-cell or culture tests; organism: HIV-1; read by: cytopathic effect / MTT; read-out: EC50

Blank or dashed fields: not listed here. Neighbouring rows are from separate reports. ECn: concentration that inhibits the pathogen or its effect by n%.

smiles | cells | strain | changes | value
CCCCCCN(C)C(=O)Oc1nsnc1-c1c(Cl)cccc1Cl | MT-4 | IIIB |  | 0.12 µM
Nc1ccn([C@H]2CC[C@@H](CO)O2)c(=O)n1 | MT-4 | RF |  | 0.22 µM
CN(C)C(=O)Oc1nsnc1-c1ccc(Cl)c(Cl)c1 | MT-4 | IIIB-R (RT-Y181C) | RT-Y181C | >315 µM
CCn1c(=O)c(C)cn([C@@H]2O[C@H](CO[Si](C)(C)C(C)(C)C)C3(OS(=O)(=O)C=C3N)[C@H]2O[Si](C)(C)C(C)(C)C)c1=O | MT-4 | HXB2 (RT E138A S162C E169D T200A L214F) Clinical isolate | RT-E138A S162C E169D T200A L214F | 1.618 µM
CCC(C)Oc1cc(N)nc(Sc2ccc(OC)cc2)n1 | MT-4 | IIIB |  | >300 µM
COc1ccc(-c2csc(/N=C/c3ccccc3)n2)cc1 | MT-4 | IIIB |  | >100 µM
CC(C)=CCOCn1c(Cc2cc(C)cc(C)c2)c(C(C)C)c(=O)[nH]c1=O | MT-4 | IIIB | RT-K103N Y181C | 26 µM
CCC(C)Oc1cc(=O)[nH]c(Sc2cccc(C)c2)n1 | MT-4 | IIIB |  | 35 µM
O=c1[nH]cnc2c1ncn2[C@H]1CC[C@@H](CO)O1 | MT-4 | RF | RT-M184I | 12.3 µM
CCOCn1c(Cc2ccccc2)c(C(C)C)c(=O)[nH]c1=O |  | HXB23(RT-K103N | RT-K103N | 2.1 µM
CCC(C)Oc1cc(N)nc(S(=O)(=O)c2cccc(Cl)c2)n1 | MT-4 | IIIB |  | >80 µM
Cc1ccc2snc(N=Cc3ccccc3O)c2c1 | MT-4 | IIIB |  | >7 µM
CCC(C)Oc1cc(=O)[nH]c(S(=O)(=O)c2ccccc2Cl)n1 | MT-4 | IIIB |  | 52 µM
CCOc1ccc2nc(/N=C/c3ccc(O)cc3)sc2c1 | MT-4 | IIIB |  | >100 µM
CCC(C)Oc1cc(N)nc(Sc2ccccc2Cl)n1 | MT-4 | IIIB |  | >87 µM
CCN(CC)C(=O)Oc1nsnc1-c1c(Cl)cccc1Cl | MT-4 | IIIB-R (RT-Y181C) | RT-Y181C | 9.4 µM
C[C@H](CC1CNC2C1OC(N)CN2N)OCP(=O)(O)O | CEM | IIIB |  | >100 µg/mL
CNC(C)[C@H]1O[C@H](O[C@@H]2[C@@H](O)[C@H](O[C@@H]3OC[C@@](C)(O)[C@@H](NC)[C@@H]3O)[C@@H](NC(=O)[C@@H](N)CCCN=C(N)N)C[C@H]2NC(=O)[C@@H](N)CCCN=C(N)N)[C@H](NC(=O)[C@@H](N)CCCN=C(N)N)[C@@H](O)[C@@H]1O | MT-4 | AOM |  | 16 µM
O=C(Oc1nsnc1-c1c(Cl)cccc1Cl)N1CCCCC1 | MT-4 | IIIB-R (RT-Y181C) | RT-Y181C | >221 µM
CN(C)CCNc1nc(N)nc2c1ncn2CCOCP(=O)(O)O | CEM | IIIB |  | 5.5 µg/mL
CC(C)=CCN1Cc2cc(Cl)cc3[nH]c(=S)n(c23)C[C@@H]1C | MT-4 | IIIB | RT-E138K | 0.464 µM
CN(C)C(=O)Oc1nsnc1-c1ccc(Cl)cc1Cl | MT-4 | IIIB-R (RT-Y181C) | RT-Y181C | >77 µM
CCC(C)Oc1cc(N)nc(S(=O)(=O)c2ccccc2)n1 | MT-4 | IIIB |  | >90 µM
Cc1cn([C@@H]2O[C@H](CO[Si](C)(C)C(C)(C)C)C3(OS(=O)(=O)C=C3N)[C@H]2O[Si](C)(C)C(C)(C)C)c(=O)n(C)c1=O | MT-4 | IIIB | RT-E138K | 1.846 µM
CCCc1c(C)[nH]c(=O)c(N(C)C)c1Cc1cc(C)cc(C)c1 | MT-4 | Recombinant | RT-K103N | 100 µM
C=C(C)COCn1c(Cc2cc(C)cc(C)c2)c(CC)c(=O)[nH]c1=O | MT-4 | HXB2 |  | 0.05 µM
Nc1nc(NCCc2ccccc2)c2ncn(CCOCP(=O)(O)O)c2n1 | CEM | IIIB |  | 16 µg/mL
CN=C1CN=C(c2ccc[nH]2)c2cc(Cl)ccc2N1 | MOLT-4 | IIIB |  | 0.23 µM
Nc1nc(N2CCOCC2)c2ncn(CCOCP(=O)(O)O)c2n1 | MT-4 | IIIB |  | 15 µg/mL
c1cc(CN2CCCNCCNCCCNCC2)ccc1CN1CCCNCCNCCCNCC1 | MT-4 | NL4-3 |  | 0.01 µM
CCCCSc1nc(N)cc(Sc2ccc3ccccc3c2)n1 | MT-4 | IIIB |  | >68 µM
C(=N\c1nc2ccccc2s1)/c1ccccc1 | MT-4 | IIIB |  | >100 µM
CC(=O)O[C@@]12C[C@@H](C)[C@@]3(O)[C@@H](C=C(CO)C[C@]4(O)C(=O)C(C)=C[C@@H]34)[C@@H]1C2(C)C | PBMC | IIIB |  | 0.09 µg/mL
COc1ccc2c(c1)N(C(=O)OC(C)C)[C@@H](CSC)C(=S)N2 | MT-4 | Recombinant mutant | RT-A98S | 0.00066 µM
CN(C)C(=O)Oc1nsnc1-c1cccc(Cl)c1Cl | MT-4 | IIIB |  | 0.94 µM
CCC(C)Oc1cc(=O)[nH]c(S(=O)(=O)c2cccc(C)c2)n1 | MT-4 | IIIB |  | >70 µM
Cc1cc(C)cc(Cc2c(CC(C)C)c(C)[nH]c(=O)c2N(C)C)c1 | MT-4 | LAI |  | 0.016 µM
CCC(C)Nc1nc(N)nc2c1[nH]c[n+]2C[C@@H](C)OCP(=O)(O)O | CEM | IIIB |  | >100 µg/mL
CCCCSc1nc(Sc2ccccc2)cc(=O)[nH]1 | MT-4 | IIIB |  | 65 µM

Repeating the final 3 entries:

smiles | cells | strain | changes | value
Cc1cc(C)cc(Cc2c(CC(C)C)c(C)[nH]c(=O)c2N(C)C)c1 | MT-4 | LAI |  | 0.016 µM
CCC(C)Nc1nc(N)nc2c1[nH]c[n+]2C[C@@H](C)OCP(=O)(O)O | CEM | IIIB |  | >100 µg/mL
CCCCSc1nc(Sc2ccccc2)cc(=O)[nH]1 | MT-4 | IIIB |  | 65 µM